The entries are a selection whose mix differs from that of the whole data set. Records with an inconclusive call do not appear. The source made the active and inactive calls. Calls follow the shape of the full dose curve; tested in HEK293 cells.
% is scaled to controls: 0 for no effect and ±100 for the full control effect.

This assay can be described thus: qHTS for Inhibitors of binding or entry into cells for Lassa Virus. Also: nearly all actives have a fitted effect of over 50% in size. The conditions noted are these: Lassa virus pseudotype entry inhibition, cell reporter; at 46.1 µM (top of the series) unless noted.
On to `O=C(OC1CN2CCC1CC2)c1ccc([N+](=O)[O-])cc1` (centres undefined), for which the activity change, negative = inhibition is inactive: -1.05%. With `O=P1(N(CCCl)CCCl)SCCCS1`, the activity change, negative = inhibition is inactive: 4.33%. On to `O=C1C(O)=C([N+](=O)[O-])C(=O)C(O)=C1[N+](=O)[O-]`, for which the activity change, negative = inhibition was inactive: -10.2%. For `N/C(=N\O)c1c(N)no[n+]1[O-]`, the activity change, negative = inhibition was inactive: -9.11% [at 37.9 µM].

The values are drawn from PubChem BioAssay AID540256 (National Center for Advancing Translational Sciences (NCATS), 2011).
